Results of unrelated studies side by side (data: NIAID ChemDB).

All rows: tests in culture; organism: Mycobacterium tuberculosis

An empty or dashed field is not shown.

SMILES,method,dose,mutations,endpoint,strain,value
Cc1cc2c(cc1C)NC1C(=O)C(c3ccccc3Cl)OC1=N2,BACTEC,,,MIC bound,H37Rv,>12.5 µg/mL
O=C1c2cc(OC(F)(F)F)ccc2-n2c1nc1ccncc1c2=O,,,,MIC,H37Rv,0.008 µg/mL
CCOC(=O)c1c(NC(=O)c2c(F)c(F)c(F)c(F)c2F)sc2c1CCOC2,low oxygen,,,EC50,,0.25 µM
C[C@@H]1CN(c2c(F)c(N)c3c(=O)c(C(=O)O)cn(C4CC4)c3c2F)C[C@H](C)N1,,,,MIC,90-0216 (drug-susceptible),0.2 µg/mL
COc1ccc(CCc2cc(OC)c3ccccc3n2)cc1OC,,,,MIC,MT5,77 µg/mL
CC[C@H]1OC(=O)[C@H](C)[C@@H](O[C@H]2C[C@@](C)(OC)[C@@H](O)[C@H](C)O2)[C@H](C)[C@@H](O[C@@H]2O[C@H](C)C[C@H](N(C)C)[C@H]2O)[C@](C)(OC)C[C@@H](C)C(=O)[C@H](C)[C@@H](O)[C@]1(C)O,,,,MIC,H37Rv,20 µg/mL
COC(c1ccc2c(c1)C(=O)c1nc3ccncc3c(=O)n1-2)C(C)C,,,,MIC,H37Rv,0.06 µg/mL
O=C(O)c1cn(C2CC2)c2c(F)c(N3CCSCC3)c(F)cc2c1=O,,,,MIC,CSU21,2 µg/mL
CC1(C)C=Cc2c(ccc(C(=O)Cc3ccccc3)c2O)O1,BACTEC,,,MIC bound,H37Rv,>12.5 µg/mL
COc1ccc(CCC2CCc3ccccc3N2C)cc1OC,,,,MIC,MT6,>100 µg/mL
Cc1ccc(OC/C(N)=N\NC(=O)c2ccncc2)cc1,,,,MIC,ATCC 35838 (rifampin-resistant),3.12 µg/mL
COc1c(O)cc2oc3cc(O)c(CCC(C)C)c(O)c3c(=O)c2c1CCC(C)C,resazurin,,MDR,MIC,M22,3.12 µg/mL
CCc1nc2ccccc2n1CCCCOc1ccc(C)c(C)c1,turbidity / fluorescence,,Rv1339 V90M,MIC90,H37Rv,2.3 µM
CCOC(=O)c1ccc2c(c1)C(=O)c1nc3c(I)cc(I)cc3c(=O)n1-2,,,,MIC,H37Rv,>4 µg/mL
CCOc1cc2oc3cc(O)c(CCC(C)C)c(O)c3c(=O)c2c(CCC(C)C)c1OC,resazurin,,,MIC,M5,1.56 µg/mL
Cc1cccc(OC/C(N)=N\NC(=O)c2ccncc2)c1,,,,MIC90,16 isolates,12.5 µg/mL
CC(C)C1COC(c2ccc3ccccc3c2-c2c(O[Si](C)(C)C(C)(C)C)ccc3ccccc23)=N1,BACTEC,12.5 µg/mL,,inhibition,H37Rv,-7%
CCC1Cn2cc([N+](=O)[O-])nc2O1,,,,MIC,H37Rv-T3-Fgd1 (PA-824-resistant),0.8 µM
CC[C@@H](CO)NCCN[C@@H](CC)CO,,,,MIC,90-0233 (INH SM-RS),1 µg/mL
CO[C@H]1/C=C/O[C@@]2(C)Oc3c(C)c(O)c4c(O)c(c(/C=N/N5CCN(C)CC5)c(O)c4c3C2=O)NC(=O)/C(C)=C\C=C\[C@H](C)[C@H](O)[C@@H](C)[C@@H](O)[C@@H](C)[C@H](OC(C)=O)[C@@H]1C,,,,Median MIC,H37Ra,0.0047 µg/mL
O=C1c2ccccc2-n2c1nc1ncccc1c2=O,,,,MIC,H37Rv,0.25 µg/mL
CCCOc1cc2oc3cc(O)c(CCC(C)C)c(O)c3c(=O)c2c(CCC(C)C)c1OC,resazurin,,MDR,MIC,M11,6.25 µg/mL
O=C(Cc1cccs1)N/N=C/c1cc(O)c(O)c(O)c1,resazurin,,,MIC,H37Rv (ATCC 27294),>100 µg/mL
O=c1ccc2c(O)c3ccoc3cc2o1,BACTEC,12.5 µg/mL,,inhibition,H37Rv,26%
N#Cc1ccc(/C=N/NC(=O)Cc2cccs2)cc1,resazurin,,,MIC,H37Rv (ATCC 27294),>100 µg/mL
O=C1C(Cl)=C(NCCCN2CCOCC2)C(=O)c2ccccc21,BACTEC,,,MIC bound,H37Rv,>12.5 µg/mL
CC[C@@H](CO)NCCN[C@@H](CC)CO,broth dilution,,Ethambutol-resistant,MIC80,17003,>20 µM
CC(C)=NNC(=O)c1ccc[n+](Cc2ccccc2)c1,BACTEC,,,MIC bound,H37Rv,>12.5 µg/mL
COc1cc(C)cc(/C=N/NC(=O)Cc2cccs2)c1O,resazurin,,,MIC,H37Rv (ATCC 27294),344.4 µM
O=C(Nc1ccc(C2=NCCN2)cc1)c1ccc(C(=O)Nc2ccc(C3=NCCN3)cc2)c(Br)c1,BACTEC,,,MIC bound,H37Rv,≤12.5 µg/mL
O=C1c2ccccc2-n2c1nc1ccc(Br)cc1c2=O,,,,MIC,H37Rv,0.13 µg/mL
NNC(=O)c1ccncc1,,,,MIC,Strain 5,0.06 µg/mL
CCc1cc(C(N)=S)ccn1,,,,MIC,90-0240 (drug-susceptible),0.5 µg/mL
NNC(=O)c1ccncc1,broth dilution,,Rifampicin-resistant,MIC80,19000,0.2 µM
O=C1c2cc(I)ccc2-n2c1nc1ncccc1c2=O,,,,MIC,TN1037RFLP:H (DRUG sensitive),0.06 µg/mL
CC(=O)N1C(=O)C2(NCC(C)N2)c2ccccc21,BACTEC,12.8 µg/mL,,inhibition,H37Rv,20%
CCN1CCc2c(sc(NC(=O)c3c(F)c(F)c(F)c(F)c3F)c2C(=O)NC)C1,turbidity,,gyrA mutant (D94N),MIC,H37Rv,3.8 µM
COC(=O)Nc1nc2cc(C)c(C)cc2n1CC(O)C(O)C(O)CO,BACTEC,0.5 µM,,inhibition,H37Rv,0%
Nc1ccc(C(=O)O)c(O)c1,,,,Median MIC,H37Ra,1.5 µg/mL
CC(C(=O)N1c2ccccc2Sc2ccccc21)N1c2ccccc2Sc2ccccc21,BACTEC,12.5 µg/mL,,inhibition,H37Rv,82%
COc1c(N2CCNC(C)C2)c(F)cc2c(=O)c(C(=O)O)cn(C3CC3)c12,,,,MIC,Strain 158,>16 µg/mL
Cn1c(=O)c2c(nc3[nH]c(=O)c(Br)cn32)n(C)c1=O,resazurin,,,MIC bound,H37Rv,>6.25 µg/mL
CCc1nc2ccccc2n1CCCCOc1ccc(Cl)cc1C,turbidity / fluorescence,,Rv1339 V90M,fold resistance,H37Rv,0.6
CCOc1c/c(=N\N=C(/C)c2ccc(Cl)cc2)n(C)c(=O)n1C,BACTEC,12.5 µg/mL,,inhibition,H37Rv,-43%
COc1cc2oc3cc(O)c(CCC(C)C)c(O)c3c(=O)c2c(CCC(C)C)c1OC,resazurin,,,MIC,M22,1.56 µg/mL
O=C1C=C(Nc2ccc(Br)cc2)c2ccccc2C1=O,resazurin,6.25 µg/mL,,inhibition,H37Rv,100%
C[C@H]1COc2c(N3CCN(C)CC3)c(F)cc3c(=O)c(C(=O)O)cn1c23,,,,MIC,001-010 (drug-resistant),0.5 µg/mL
NNC(=O)c1ccncc1,,,,MIC,CSU18,4 µg/mL
CC1COc2c(N3CCN(C)CC3)c(F)cc3c(=O)c(C(=O)O)cn1c23,broth dilution,,Ethambutol-resistant,MIC80,17003,0.3 µM
CCOC(=O)c1c(NC(=O)c2c(F)c(F)c(F)c(F)c2F)sc2c1CCNC2=O,low oxygen,,,MIC,,13 µM
CC/C=C/C/C=C/C/C=C/CCCCCCCC(=O)OCC,BACTEC,,,MIC bound,H37Rv,>12.5 µg/mL
Nc1sc(-c2ccccc2)cc1C(=O)Nc1ccccc1,resazurin,,,MIC,H37Rv,100 µg/mL
CCCCCCc1ccc2c(c1)C(=O)c1nc3ccncc3c(=O)n1-2,,,,MIC,H37Rv,0.06 µg/mL
CC1CN(c2c(F)cc3c(=O)c(C(=O)O)cn(C4CC4)c3c2F)CC(C)N1,,,,MIC,CSU27,≤0.125 µg/mL
NNC(=O)c1ccncc1,,,,Median MIC,H37Ra,0.05 µg/mL
N[C@@H]1CONC1=O,,,,MIC,90-0216 (drug-susceptible),75 µg/mL
CC[C@H]1OC(=O)[C@H](C)[C@@H](O[C@H]2C[C@@](C)(OC)[C@@H](O)[C@H](C)O2)[C@H](C)[C@@H](O[C@@H]2O[C@H](C)C[C@H](N(C)C)[C@H]2O)[C@](C)(OC)C[C@@H](C)C(=O)[C@H](C)[C@@H](O)[C@]1(C)O,,,,MIC,MDR-1 (MDR),>8 µg/mL
CN(C)c1ccc2c(=O)c(C(=O)O)c[nH]c2c1,BACTEC,12.5 µg/mL,,inhibition,H37Rv,77%
CCc1cc(C(N)=S)ccn1,,,,Median MIC,H37Rv,0.94 µg/mL
NCC[C@H](O)C(=O)N[C@@H]1C[C@H](N)[C@@H](O[C@H]2O[C@H](CN)[C@@H](O)[C@H](O)[C@H]2O)[C@H](O)[C@H]1O[C@H]1O[C@H](CO)[C@@H](O)[C@H](N)[C@H]1O,,,,MIC,90-0201 (drug-susceptible),0.5 µg/mL
O=C(Cc1cccs1)N/N=C/c1cccc(O)c1O,resazurin,,,MIC,H37Rv (ATCC 27294),>100 µg/mL
NC[C@H]1O[C@H](O[C@H]2[C@H](O)[C@@H](O[C@H]3O[C@H](CO)[C@@H](O)[C@H](N)[C@H]3O)[C@H](N)C[C@@H]2N)[C@H](O)[C@@H](O)[C@@H]1O,,,,Median MIC,H37Rv,1.25 µg/mL
CCc1nc2ccccc2n1CCCCOc1cccc(C)c1,turbidity / fluorescence,,QcrB T313I,fold resistance,H37Rv,70
CCNC(=O)c1c(NC(=O)c2c(F)c(F)c(F)c(F)c2F)sc2c1CCN(CC)C2,turbidity,,gyrA mutant (D94N),EC50,H37Rv,4.4 µM
CCOC(=O)C1CSC(c2c(CO)cnc(C)c2O)N1,BACTEC,12.5 µg/mL,,inhibition,H37Rv,0%
CCc1nc2ccc(C)cc2n1CCCCOc1ccccc1,turbidity / fluorescence,,WT,MIC90,H37Rv,1.3 µM
CC(=O)Nc1ccc(/C=N/NC(N)=S)cc1,,,,MIC,ATCC 27294,15 µg/mL
C[C@@H]1CN(c2c(F)c(N)c3c(=O)c(C(=O)O)cn(C4CC4)c3c2F)C[C@H](C)N1,,,,MIC,Erdman,0.125 µg/mL
N/C(COc1cccc(Cl)c1)=N/NC(=O)c1ccncc1,,,,MIC50,16 isolates,6.25 µg/mL
COc1cc2oc3cc(OC(C)=O)c(CCC(C)C)c(O)c3c(=O)c2c(CCC(C)C)c1C(C)=O,resazurin,,,MIC,H37Ra,100 µg/mL
N#Cc1c(NC(=O)c2c(F)c(F)c(F)c(F)c2F)sc2c1CCOC2,turbidity,,katG Y155 truncation mutant,MIC,H37Rv,16 µM
COc1cc2c(cc1OC)C(c1c(-c3c(Cl)cccc3Cl)noc1C)=NCC2,resazurin,6.25 µg/mL,,inhibition,H37Rv,21%
CCN1CCc2c(sc(NC(=O)c3c(F)c(F)c(F)c(F)c3F)c2C#N)C1,turbidity,,katG Y155 truncation mutant,MIC,H37Rv,20 µM
CC(=O)c1c(OC(=O)c2ccccc2)cc2oc3cc(OC(=O)c4ccccc4)c(CCC(C)C)c(O)c3c(=O)c2c1CCC(C)C,resazurin,,,MIC,H37Ra,12.5 µg/mL
CC1(C)S[C@@H]2[C@H](NC(=O)[C@H](N)c3ccccc3)C(=O)N2[C@H]1C(=O)O,,,,MIC,1560,>92 µM
NCC[C@H](O)C(=O)N[C@@H]1C[C@H](N)[C@@H](O[C@H]2O[C@H](CN)[C@@H](O)[C@H](O)[C@H]2O)[C@H](O)[C@H]1O[C@H]1O[C@H](CO)[C@@H](O)[C@H](N)[C@H]1O,,,,Mean MIC,H37Ra,0.59 µg/mL
O=[N+]([O-])c1oc2ccc3ccccc3c2c1CCO,resazurin,,,MIC bound,H37Rv,>6.25 µg/mL
Cc1onc(-c2ccccc2Cl)c1C(=O)N[C@@H]1C(=O)N2[C@@H]1SC(C)(C)[C@@H]2C(=O)O,,,,Median MIC,H37Rv,256 µg/mL
C[C@@H]1CN(c2c(F)c(N)c3c(=O)c(C(=O)O)cn(C4CC4)c3c2F)C[C@H](C)N1,,,,MIC,MDR-3948 (MDR),0.2 µg/mL
CC(=O)OCC1OC(c2[nH]nc3c(Cl)ncnc23)C(OC(C)=O)C1OC(C)=O,BACTEC,12.5 µg/mL,,inhibition,H37Rv,24%
CO[C@H]1/C=C/O[C@@]2(C)Oc3c(C)c(O)c4c(O)c(c(/C=N/N5CCN(C6CCCC6)CC5)c(O)c4c3C2=O)NC(=O)/C(C)=C\C=C\[C@H](C)[C@H](O)[C@@H](C)[C@@H](O)[C@@H](C)[C@H](OC(C)=O)[C@@H]1C,,,,Median MIC,H37Rv,0.006 µg/mL
C/C(=N/NC(=S)N1CCN(C2CCCCCC2)CC1)c1ccccn1,resazurin,6.25 µg/mL,,inhibition,H37Rv,99%
O=[N+]([O-])c1cn2c(n1)OC[C@@H](OCc1ccc(OC(F)(F)F)cc1)C2,,,,MIC,H37Rv-7A2 (PA-824-resistant),>100 µM

5 of the rows above, restated:

SMILES | method | dose | mutations | endpoint | strain | value
N#Cc1ccc(/C=N/NC(=O)Cc2cccs2)cc1 | resazurin |  |  | MIC | H37Rv (ATCC 27294) | >100 µg/mL
NNC(=O)c1ccncc1 |  |  |  | Median MIC | H37Ra | 0.05 µg/mL
Nc1sc(-c2ccccc2)cc1C(=O)Nc1ccccc1 | resazurin |  |  | MIC | H37Rv | 100 µg/mL
O=C1c2ccccc2-n2c1nc1ncccc1c2=O |  |  |  | MIC | H37Rv | 0.25 µg/mL
O=c1ccc2c(O)c3ccoc3cc2o1 | BACTEC | 12.5 µg/mL |  | inhibition | H37Rv | 26%

MIC bound comes from a single tested concentration. MIC50, MIC90 and the like: level of inhibition, or share of isolates inhibited. Fold resistance: result on the changed form divided by that on wild type. Lines come from different laboratories, so protocols vary. Inhibition is in % at the dose shown (toxicity tests: loss of growth or viability). ECn is the concentration giving n% inhibition of infection, replication or growth.